In test [1] the target is FplA(20–431) (Fusobacterium nucleatum subsp. nucleatum, UniProt Q8R6F6). The test can be described thus: IC50 assays of FplA inhibitors with 4-MuH substrate. The test is classed as biochemical, F. nucleatum 25586. The settings on record: 1 nM FplA(20–431), 10 μM 4-MuH, pH 8.5, 26 °C, 30 min.
Test [2] concerns FplA(20–760) on the surface of E. coli. Description: Enzymatic activity of full-length FplA on the surface of live E. coli with 4-MuH. The note with it: 10 μM MAFP, 60 min preincubation; 10 μM 4-MuH, 37 °C, 30 min. As to the method: Using the expression vector pDJSVT86 that is described under “Cloning of FplA constructs for expression in E. coli,” we cloned FplA(20–760) into the vector at the 3′ end of the OmpA(1–27)-His6 signal sequence (pDJSVT88). This construct was expressed in LOBSTR RIL ([62]) E. coli in Studier autoinduction medium at 37 °C for 20 h with 250-rpm shaking. The empty vector pDJSVT86 was used as a negative control for FplA expression for both microscopy and enzymatic assays.
For the enzymatic activity assay, stationary phase bacteria from overnight expressions were washed in PBS, pH 7.5, and spun down at 5000 × g for 5 min, followed by resuspension of the bacteria at an A600 = 0.2 in PBS, pH 7.5.

Amino acid sequences for entries named in this document (tags omitted). Residues count along the entry.
UniProt Q8R6F6, 20-431 limits assumed: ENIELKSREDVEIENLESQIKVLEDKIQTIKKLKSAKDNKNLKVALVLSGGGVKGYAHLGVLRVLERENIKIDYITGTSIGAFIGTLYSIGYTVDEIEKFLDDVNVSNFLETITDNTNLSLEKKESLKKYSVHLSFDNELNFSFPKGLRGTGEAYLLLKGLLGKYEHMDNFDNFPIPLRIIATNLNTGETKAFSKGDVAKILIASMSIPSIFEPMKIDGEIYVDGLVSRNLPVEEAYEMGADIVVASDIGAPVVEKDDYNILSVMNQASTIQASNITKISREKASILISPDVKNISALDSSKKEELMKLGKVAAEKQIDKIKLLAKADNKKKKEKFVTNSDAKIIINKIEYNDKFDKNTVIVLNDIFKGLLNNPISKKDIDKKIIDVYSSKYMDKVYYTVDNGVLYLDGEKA

The structures appear in SMILES notation.

Usually IC50 stands for the concentration that gives 50% inhibition. Turning to `CCCCC/C=C/C/C=C/C/C=C/C/C=C/CCCCP(=O)(F)OC` (centres unmarked), in test [1], the IC50 was found to be 0.011 µM. Also, in test [2], the “Effect on 4-MuH cleavage (fluorescence) by whole live E. coli expressing FplA” value is “inhibited”.

Values taken from publication PMC5724010 (The Journal of Biological Chemistry, 2017).
